Test results: paper PMC3764172
Protein sequences can lack the tags named with them.

Target: T1, PGN_0753 (HaeR) response regulator, His6-tagged (Porphyromonas gingivalis ATCC 33277) (UniProt B2RIS7)
T1 sequence (looked up): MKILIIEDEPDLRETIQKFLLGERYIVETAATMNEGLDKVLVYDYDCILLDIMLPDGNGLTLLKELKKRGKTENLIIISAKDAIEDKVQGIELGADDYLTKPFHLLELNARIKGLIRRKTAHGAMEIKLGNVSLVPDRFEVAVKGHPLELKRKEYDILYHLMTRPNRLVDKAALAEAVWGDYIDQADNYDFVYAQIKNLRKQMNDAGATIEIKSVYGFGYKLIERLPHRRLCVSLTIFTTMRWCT
Test: EMSA
Conditions: 1 mM acetyl phosphate; recombinant protein; residues 1-245; protein details: C-terminal His6 (pET-22b+); label: DIG; probe letters rebuilt from the primers and the genome

“TAGATGATTTTCCTTGTCATGCCATAGCTTTATGTCATTGATTATACCTAAATACACGAAATAATCGGCTGACACACAATATAATGAATGAATAAAAGCACCTGTTTATTGAGCAAAGGTCTCTATAAGAAAACAAAAGCTATATAGCTTTCGGTCGATTCCTATATAGGATTGAGCTGATTACTATATAGCTTTCGTTTGATTGCTATATAGGATTGGGCCGATTGCTATATAGCTTTGTTTACACTCCTATATAGTCATCCCCTAAAAAGTCCCTTTCAGGGAGATATTGTCAGCAAACAGTATCTCGCAGA (double strand) [hmuY (PGN_0558) promoter]”: binds.
